Results of unrelated studies side by side (data: NIAID ChemDB).

All rows: growth or infection tests; organism: Mycobacterium avium complex; measure: MIC90

Lines come from different laboratories, so protocols vary.

SMILES,strain,result
NC1CCN(c2c(F)cc3c(=O)c(C(=O)O)cn(C4CC4)c3c2Cl)C1,25 isolates,>8 µg/mL
CC[C@H]1OC(=O)[C@H](C)[C@@H](O[C@H]2C[C@@](C)(OC)[C@@H](OC(C)=O)[C@H](C)O2)[C@H](C)[C@@H](O[C@@H]2O[C@H](C)C[C@H](N(C)C)[C@H]2O)C(C)(O)C[C@@H](C)/C(=N\OCCCC2CCCCC2)[C@H](C)[C@@H](O)[C@]1(C)O,27 strains,1.56 µg/mL
C[C@H]1NCc2cc(-c3ccc4c(=O)c(C(=O)O)cn(C5CC5)c4c3OC(F)F)ccc21,8 strains,16 µg/mL
C[C@H]1CN(c2c(F)cc3c(=O)c(C(=O)O)cn(C4CC4)c3c2OC(F)F)CCN1,53 strains,3.13 µg/mL
NC[C@@H]1O[C@H](O[C@H]2[C@@H](O)[C@H](O[C@@H]3[C@@H](O)[C@H](N)C[C@H](N)[C@H]3O[C@H]3O[C@H](CN)[C@@H](O)[C@H](O)[C@H]3N)O[C@@H]2CO)[C@H](N)[C@@H](O)[C@@H]1O,25 isolates,>64 µg/mL
CC[C@H]1OC(=O)[C@H](C)[C@@H](O[C@H]2C[C@@](C)(OC)[C@@H](O)[C@H](C)O2)[C@H](C)[C@@H](O[C@@H]2O[C@H](C)C[C@H](N(C)C)[C@H]2O)[C@](C)(OC)C[C@@H](C)C(=O)[C@H](C)[C@@H](O)[C@]1(C)O,19 strains (HIV+),16 µg/mL
CC1COc2c(N3CCN(C)CC3)c(F)cc3c(=O)c(C(=O)O)cn1c23,18 strains,50 µg/mL
O[C@H](c1cc2ccc(C(F)(F)F)cc2c2cc(C(F)(F)F)ccc12)[C@H]1CCCCN1,24 clinical isolates,4 µg/mL
CO[C@H]1/C=C/O[C@@]2(C)Oc3c(C)c(O)c4c(O)c(c5c(c4c3C2=O)NC2(CCN(CC(C)C)CC2)N=5)=NC(=O)/C(C)=C\C=C\[C@H](C)[C@H](O)[C@@H](C)[C@@H](O)[C@@H](C)[C@H](OC(C)=O)[C@@H]1C,211 strains,1.53 µg/mL
O=C(O)c1cn(C2CCCC2)c2cc(NC3CCCC3)c([N+](=O)[O-])cc2c1=O,-,>200 µM
C[C@@H]1CN(c2c(F)c(N)c3c(=O)c(C(=O)O)cn(C4CC4)c3c2F)C[C@H](C)N1,18 strains,12.5 µg/mL
CCCCN(CCCC)C[C@@H](O)c1cc2c(Cl)cc(Cl)cc2c2cc(C(F)(F)F)ccc12,24 clinical isolates,8 µg/mL
COc1c(N2CCNC(C)C2)c(F)cc2c(=O)c(C(=O)O)cn(C3CC3)c12,18 strains,12.5 µg/mL
NCC[C@H](O)C(=O)N[C@@H]1C[C@H](N)[C@@H](O[C@H]2O[C@H](CN)[C@@H](O)[C@H](O)[C@H]2O)[C@H](O)[C@H]1O[C@H]1O[C@H](CO)[C@@H](O)[C@H](N)[C@H]1O,25 isolates,>64 µg/mL
CO[C@H]1/C=C/O[C@@]2(C)Oc3c(C)c(O)c4c(O)c(c(N5CCN(Cc6c(C)cc(C)cc6C)CC5)c(O)c4c3C2=O)NC(=O)/C(C)=C\C=C\[C@H](C)[C@H](O)[C@@H](C)[C@@H](O)[C@@H](C)[C@H](OC(C)=O)[C@@H]1C,67 strains (HIV+),0.5 µg/mL
Cc1cc(-c2cc3c(cc2F)c(=O)c(C(=O)O)cn3C2CC2)cc(C)n1,30 strains,1 µg/mL
CC(C)NC(=O)N1CCC(CN=c2cc3n(-c4ccc(Cl)cc4)c4ccccc4nc-3cc2Nc2ccc(Cl)cc2)CC1,5 strains,2 µg/mL
CC[C@H]1OC(=O)[C@H](C)[C@@H](O[C@H]2C[C@@](C)(OC)[C@@H](O)[C@H](C)O2)[C@H](C)[C@@H](O[C@@H]2O[C@H](C)C[C@H](N(C)C)[C@H]2O)[C@](C)(OC)C[C@@H](C)C(=O)[C@H](C)[C@@H](O)[C@]1(C)O,28 strains,4 µg/mL
CC[C@H]1OC(=O)[C@H](C)C(=O)[C@H](C)[C@@H](O[C@@H]2O[C@H](C)C[C@H](N(C)C)[C@H]2O)[C@](C)(OC)C[C@@H](C)C(=O)[C@H](C)[C@H]2N(NCCCc3ccnc4ccccc34)C(=O)O[C@]12C,24 strains (HIV+),27 µg/mL
O=C(O)c1cn(CCF)c2cc(NCCF)c([N+](=O)[O-])cc2c1=O,-,100 µM
Clc1ccc(Nc2cc3nc4ccccc4n(-c4ccc(Cl)cc4)c-3cc2=NCCCN2CCCC2)cc1,10 strains (HIV+),2 µg/mL
CC1COc2c(N3CCN(C)CC3)c(F)cc3c(=O)c(C(=O)O)cn1c23,89 isolates,>16 µg/mL
C[C@@H]1CN(c2c(F)c(N)c3c(=O)c(C(=O)O)cn(C4CC4)c3c2F)C[C@H](C)N1,53 strains,6.25 µg/mL
CC(=O)NC[C@H]1CN(c2ccc(N3CCN(Cc4ccc([N+](=O)[O-])s4)CC3)c(F)c2)C(=O)O1,31 isolates,0.5 µg/mL
O=C(O)c1cn(C2CCC2)c2cc(NC3CCC3)c([N+](=O)[O-])cc2c1=O,-,>200 µM
CC1COc2c(C3(N)CC3)c(F)cc3c(=O)c(C(=O)O)cn1c23,53 strains,100 µg/mL
Cc1c(F)c(N2CCNC(C)C2)cc2c1c(=O)c(C(=O)O)cn2C1CC1,-,12.5 µg/mL
N[C@@H]1CN(c2c(F)cc3c(=O)c(C(=O)O)cn([C@@H]4C[C@@H]4F)c3c2Cl)CC12CC2,24 strains,8 µg/mL
CC[C@H]1OC(=O)C[C@@H](O)[C@H](C)[C@@H](O[C@@H]2O[C@H](C)[C@H](O)[C@H](N(C)C)[C@H]2O)[C@@H](CC=O)C[C@@H](C)C(=O)/C=C/C(C)=C/[C@@H]1COC(C)=O,28 strains,≥64 µg/mL
COc1cccc2c1n([O-])c1cccc(OC)c1[n+]2=O,5 strains,32 µg/mL
CC1(C)N=C(N)N=C(N)N1OCCCOc1cc(Cl)c(Cl)cc1Cl,31 strains,4 µg/mL
CC[C@H]1OC(=O)[C@H](C)[C@@H](O[C@H]2C[C@@](C)(OC)[C@@H](O)[C@H](C)O2)[C@H](C)[C@@H](O[C@@H]2O[C@H](C)C[C@H](N(C)C)[C@H]2O)[C@](C)(O)C[C@@H](C)CN(C)[C@H](C)[C@@H](O)[C@]1(C)O,28 strains,32 µg/mL
CO[C@H]1/C=C/O[C@@]2(C)Oc3c(C)c(O)c4c(=O)c(c5oc6cc(N7CCN(CC(C)C)CC7)cc(=O)c6nc5c4c3=C2O)NC(=O)/C(C)=C\C=C\[C@H](C)[C@H](O)[C@@H](C)[C@@H](O)[C@@H](C)[C@H](OC(C)=O)[C@@H]1C,-,0.25 µg/mL
C[C@@H]1CN(c2c(F)c(N)c3c(=O)c(C(=O)O)cn(C4CC4)c3c2F)C[C@H](C)N1,20 strains,0.5 µg/mL
CN1CCCC1CCN=c1cc2n(-c3ccc(Cl)cc3)c3ccccc3nc-2cc1Nc1ccccc1,10 strains (HIV+),0.83 µg/mL
O=C(O)c1cn(C2CC2)c2c(Cl)c(N3C[C@@H]4CCCN[C@@H]4C3)c(F)cc2c1=O,101,1 µg/mL
O=C(N1CCC(CN=c2cc3n(-c4ccc(Cl)cc4)c4ccccc4nc-3cc2Nc2ccc(Cl)cc2)CC1)N1CC1,5 strains,4 µg/mL
CC1CN(c2cc3c(cc2F)c(=O)c(C(=O)O)cn3-c2ccc(F)cc2F)CCN1,25 isolates,>8 µg/mL
C=C(C)CC[C@H]1CN(c2ccn(N3CCOCC3)c2)C(=O)O1,-,>100 µM
C[C@H]1COc2c(N3CCN(C)CC3)c(F)cc3c(=O)c(C(=O)O)cn1c23,25 isolates,>8 µg/mL
Cc1c(F)c(N2CCNC(C)C2)cc2c1c(=O)c(C(=O)O)cn2C1CC1,41 clinical isolates,16 µg/mL

3 of the rows above, restated:

SMILES | strain | result
C[C@@H]1CN(c2c(F)c(N)c3c(=O)c(C(=O)O)cn(C4CC4)c3c2F)C[C@H](C)N1 | 20 strains | 0.5 µg/mL
CN1CCCC1CCN=c1cc2n(-c3ccc(Cl)cc3)c3ccccc3nc-2cc1Nc1ccccc1 | 10 strains (HIV+) | 0.83 µg/mL
O=C(O)c1cn(C2CCC2)c2cc(NC3CCC3)c([N+](=O)[O-])cc2c1=O | - | >200 µM

A number after MIC or MFC names an inhibition level or a share of isolates. Blank or dashed fields: not listed here.